Pooled drug test results. Numbers come from NIAID ChemDB, via PubChem.

Common to all: tests in culture; agent: Aspergillus niger

MIC50, MIC90 and the like: level of inhibition, or share of isolates inhibited.

smiles | method | strain or isolate | read-out | result
O=C(CSc1nc2ccccc2[nH]1)c1c([O-])on[n+]1-c1ccccc1 | agar diffusion | - | EC50 | >20 µg/mL
COc1ccc(C2CC(Cc3ccc(CC(C)C)cc3)=Cc3[nH][nH]c(=O)c32)cc1 | agar diffusion | - | MIC | 50 µg/mL
Cc1nn(-c2ccccc2)c2c1C(c1ccc(O)cc1)c1c(nc(=O)[nH]c1N)O2 | - | MTCC 282 | MIC | >1000 µg/mL
OB(O)c1ccccc1 | turbidity | - | MIC | 250 µg/mL
Nc1[nH]c(=O)ncc1F | broth dilution | - | MIC | 6.3 µg/mL
Fc1ccc(N2COc3c(ccc4ccccc34)C2)cc1 | - | NCIM 545 | MIC | 10 µg/mL
COc1ccccc1-[n+]1noc([O-])c1C(=O)CSc1nc2ccccc2[nH]1 | agar diffusion | - | EC50 | >20 µg/mL
O=C(NN1C(=O)/C(=C/c2cc3ccccc3nc2Cl)N=C1c1ccccc1)c1cccc([N+](=O)[O-])c1 | broth dilution | MTCC 282 | MIC | 500 µg/mL
O=C(c1ccccc1Br)n1c(-c2ccc([N+](=O)[O-])cc2)nc2ccccc21 | - | - | MIC | 15 µg/mL
O=C(CN1CCOCC1)Nc1nc(-c2ccccc2)cc(-c2ccc(F)cc2)n1 | - | - | MIC | 25 µg/mL
CCOC(=O)C(C#N)C(c1cc2cc(OCC)ccc2n2nnnc12)P(=O)(OCC)OCC | agar diffusion | NCIM 545 | MIC | 10 µg/mL
COc1cccc2c1C(=O)c1c(O)c3c(c(O)c1C2=O)C[C@@](O)(C(=O)CO)C[C@@H]3O[C@H]1C[C@H](N)[C@@H](O)[C@H](C)O1 | - | NCPF 7162 | MIC | >100 µM
Cc1ccc(C2C(C#N)=C(N)Oc3c2c(C)nn3-c2ccccc2)cc1 | - | MTCC 282 | MIC | 1000 µg/mL
CCCCCCCCCCCCCCCCCCCCCC[C@H](O)CCCCCC | broth dilution | - | MFC | 500 µM
Cc1nc2c(s1)C(=O)C(Nc1ccc(F)cc1)=C(Cl)C2=O | broth dilution | KCTC 1231 | MIC | 25 µg/mL
CCOc1ccc(N2COc3c(ccc4ccccc34)C2)cc1 | - | NCIM 545 | MIC | 15 µg/mL
CC(=O)O[C@H]1CC[C@@]2(C)C(=CCC3C4CCC(C(=O)/C=C/c5ccc(F)cc5F)[C@@]4(C)CCC32)C1 | turbidity | MTCC 281 | MIC | 500 µg/mL
COc1ccccc1-c1nc2ccccc2n1C(=O)c1ccc([N+](=O)[O-])cc1 | - | - | MIC | 33 µg/mL
OB1OC(N2CCN(C3OB(O)c4ccccc43)CC2)c2ccccc21 | turbidity | - | MFC | 0.9 µg/mL
CCCCCOc1ccc(-c2ccc(-c3ccc(C(=O)N[C@H]4C[C@@H](O)[C@@H](O)NC(=O)[C@@H]5[C@@H](O)[C@@H](C)CN5C(=O)[C@H]([C@H](C)O)NC(=O)[C@H]([C@H](O)[C@@H](O)c5ccc(O)cc5)NC(=O)[C@@H]5C[C@@H](O)CN5C(=O)[C@H]([C@H](C)O)NC4=O)cc3)cc2)cc1 | broth dilution | - | MEC | <0.06 µg/mL
Cc1nn(-c2ccccc2)c2c1C(c1ccc(O)cc1)C(C#N)=C(N)O2 | - | MTCC 282 | MIC | 1000 µg/mL
CCc1c(OC)ccc2sc(C)nc12 | broth dilution | KCTC 1231 | MIC | >100 µg/mL
Cc1ccc(-[n+]2noc([O-])c2C(=O)CSc2nc3ccccc3[nH]2)cc1 | agar diffusion | - | EC50 | >20 µg/mL
OB1OCc2cc(F)ccc21 | turbidity | - | MFC | 0.9 µg/mL
COC(=O)[C@H]1[C@@H]2C[C@@H](O[C@@H]3O[C@H](C)[C@@H](O)[C@H](N)[C@@H]3O)/C=C/C=C/C=C/C=C/C=C/C=C/C=C/[C@H](C)[C@@H](O)[C@H](C)[C@H](C)OC(=O)C[C@H](O)C[C@H](O)[C@@H](O)CC[C@H](O)C[C@H](O)C[C@](O)(C[C@@H]1O)O2 | - | NCPF 7162 | MIC | 0.32 µM
Cc1nc2c(s1)C(=O)C(Nc1ccc(Cl)cc1)=C(Cl)C2=O | broth dilution | KCTC 1231 | MIC | 25 µg/mL
CC(C)Cc1ccc(CC2=Cc3[nH][nH]c(=O)c3C(c3ccccc3)C2)cc1 | agar diffusion | - | MIC | 100 µg/mL
Cc1ccc(-[n+]2noc([O-])c2C(=O)CSc2nc3ccccc3[nH]2)cc1Cl | agar diffusion | - | EC50 | >20 µg/mL
COC(=O)c1c(N)oc2c1cc(O)c1sc(C)nc12 | broth dilution | KCTC 1231 | MIC | 100 µg/mL
C[C@H]1[C@H](O)[C@@H](C)/C=C/C=C/C=C/C=C/C=C/C=C/C=C/[C@H](O[C@@H]2O[C@H](C)[C@@H](O)[C@H](N)[C@@H]2O)C[C@@H]2O[C@](O)(C[C@@H](O)C[C@@H](O)CC[C@H](O)[C@@H](O)C[C@@H](O)CC(=O)O[C@H]1C)C[C@H](O)[C@H]2C(=O)O | broth dilution / absorbance | Clinical isolate | MIC99 | 0.39 µM
Cc1nn(-c2ccccc2)c2c1C(c1ccc(F)cc1)c1c(nc(=S)[nH]c1N)O2 | - | MTCC 282 | MIC | 1000 µg/mL
O=C(c1ccccc1Br)n1c(-c2ccc(O)cc2)nc2ccccc21 | - | - | MIC | 32 µg/mL
Brc1cc(Br)c(N2COc3c(ccc4ccccc34)C2)c(Br)c1 | - | NCIM 545 | MIC | 20 µg/mL
CC(C)Cc1ccc(CC2=Cc3[nH][nH]c(=O)c3C(c3ccc(Br)cc3)C2)cc1 | agar diffusion | - | MIC | 100 µg/mL
Fc1cc(F)c(B2Oc3ccccc3O2)c(F)c1 | turbidity | - | MIC | 62.5 µg/mL
O=C(NN1C(=O)/C(=C/c2cc3ccccc3nc2Cl)N=C1c1ccccc1)c1ccc([N+](=O)[O-])cc1 | broth dilution | MTCC 282 | MIC | 100 µg/mL
Cc1nc2c(s1)C(=O)C(Nc1ccc(C#N)cc1)=C(Cl)C2=O | broth dilution | KCTC 1231 | MIC | 3.2 µg/mL
O=C(NN1C(=O)/C(=C/c2cc3ccccc3nc2Cl)N=C1c1ccccc1)c1cccc(Cl)c1 | broth dilution | MTCC 282 | MIC | 1000 µg/mL
O=C(c1ccc([N+](=O)[O-])cc1)n1c(-c2ccccc2)nc2ccccc21 | - | - | MIC | 18 µg/mL
CC(=O)O[C@H]1CC[C@@]2(C)C(=CCC3C4CCC(C(=O)/C=C/c5cc(F)cc(F)c5F)[C@@]4(C)CCC32)C1 | turbidity | MTCC 281 | MIC | 500 µg/mL
O=C(Cc1ccccc1)NN1C(=O)/C(=C/c2cc3ccccc3nc2Cl)N=C1c1ccccc1 | broth dilution | MTCC 282 | MIC | 1000 µg/mL
Cc1ccccc1-[n+]1noc([O-])c1C(=O)CSc1nc2ccccc2[nH]1 | agar diffusion | - | EC50 | >20 µg/mL
Nc1scc2c1c(=O)oc1ccccc12 | broth dilution | - | MIC | 16 µg/mL
Cc1nc2c(s1)C(=O)C(Nc1ccc(I)cc1)=C(Cl)C2=O | broth dilution | KCTC 1231 | MIC | 3.2 µg/mL
O=C(Nc1nc2ccccc2s1)c1cn[nH]c1C(=O)c1ccc(Cl)cc1 | broth dilution | - | MFC | 5 µg/mL
Cc1nn(-c2ccccc2)c2c1C(c1ccc(Cl)cc1)C(C#N)=C(N)O2 | - | MTCC 282 | MIC | >1000 µg/mL
O=C(c1ccc([N+](=O)[O-])cc1)n1c(-c2cccc([N+](=O)[O-])c2)nc2ccccc21 | - | - | MIC | 18 µg/mL
OC(Cn1cncn1)(Cn1cncn1)c1ccc(F)cc1F | turbidity | MTCC 281 | MIC | 150 µg/mL
O=C(c1ccc([N+](=O)[O-])cc1)n1c(-c2ccc([N+](=O)[O-])cc2)nc2ccccc21 | - | - | MIC | 18 µg/mL
COc1cc(Cl)ccc1-[n+]1noc([O-])c1C(=O)CSc1nc2ccccc2[nH]1 | agar diffusion | - | EC50 | >20 µg/mL
CC(C)Cc1ccc(CC2=Cc3[nH][nH]c(=O)c3C(c3ccc(F)cc3)C2)cc1 | agar diffusion | - | MIC | 25 µg/mL
O=C(c1ccc([N+](=O)[O-])cc1)n1c(-c2ccc(Cl)cc2)nc2ccccc21 | - | - | MIC | 17 µg/mL

Blank or dashed fields: not listed here. ECn: concentration that inhibits the pathogen or its effect by n%. Rows are shuffled and stem from different studies.